From paper PMC3303745, “Elucidation of the Rotavirus NSP4-Caveolin-1 and -Cholesterol Interactions Using Synthetic Peptides” (Journal of Amino Acids, 2012)

System: C-Cav161-178
Assay: Direct fluorescence-binding assay, N-terminal cav-1 peptides with Cy3-C-Cav161-178
Conditions: 100 nM Cy3-C-Cav161-178 titrated with 0–500 nM N-terminal cav-1 peptide
Method: A fluorescence-binding assay was utilized to investigate direct binding of the NSP4_112-140 peptide with each of the cav-1 peptides (N-Cav2-20, N-Cav19-40, Cav68-80, and C-Cav). All of the cav-1 peptides directly were labeled with a Cy3 fluorescent dye, using the Cy3 Monoreactive dye pack from Amersham Biosciences according to the manufacturer's protocol. Briefly, each peptide was dissolved in 50 nM phosphate buffer, pH 7.0, at a concentration of 1 mg/mL, and added to a vial containing lyophilized Cy3 dye. The solution gently was mixed and incubated at 25°C for at least 2 h with intermittent mixing. […]
The Cy3 fluorophore was excited at 550 nm and emission spectra were scanned from 560 to 700 nm. Fluorescence emission spectra were obtained at 25°C with a PC1 photon-counting spectrofluorometer with excitation and emission slit widths of 1.0 (ISS, Inc.). Spectra were corrected for background and maximal fluorescence intensities were recorded. Calculation of the dissociation constants (K d) was performed from the titration curves plotted as quenching in Cy3-peptide fluorescence intensity (F 0 − F, where F 0 and F represented the Cy3-cav-1 peptide fluorescence intensities in the absence and presence of NSP4_112-140 or cav-1 peptide, resp., at each titration point) as a function of peptide concentration. […]

SGGKYVDSEGHLYTVPIRE [N-Cav2-20, caveolin-1 N-terminal peptide aa 2–20]
binding to Cy3-C-Cav161-178 (change in fluorescence intensity at 565 nm): no change in fluorescence intensity
